PubChem BioAssay AID624099 | ICCB-Longwood | 2012
Shown is one part, drawn at random, of about 21,000 reagents tested. Of all reagents, 497 (2.4%) are marked active. 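Higher z means weaker E2 silencing; only reporter increases were scored, and knock-downs that hurt cell survival may mask genuine repressor factors.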 Reagents against one gene are numbered here.

- Test: 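Knock-downs relieving repression by E2 of an HPV18 LCR luciferase reporter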 (primary screen)
- Cell system: human C33A cervical carcinoma cells (HPV-negative) stably expressing BPV1 E2 and an HPV18 LCR luciferase reporter
- Reagent: siRNA pool against human genes, 40 nM
- Timing: 72 h
- Read-out: 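HPV18 LCR reporter light per well, converted to plate-wise z-scores that exclude control wells, and averaged over triplicate plates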
- Scale: mean z-score and z-score: higher = stronger reporter signal, weaker E2 silencing
- Call rule: 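Mean z ≥ 2 together with z ≥ 2 in two or more of the three replicates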

With knock-down of LCE3C the results were mean z-score -1.75; z-score, replicate A = -1.54; z-score, replicate B = -1.7; z-score, replicate C = -2; inactive.
LOC402269 (retired record) showed mean z-score -0.46; z-score, replicate A = -0.64; z-score, replicate B = -0.38; z-score, replicate C = -0.35; inactive.
Depletion of AMH resulted in: mean z-score 0.2; z-score, replicate A = 0.21; z-score, replicate B = 0.23; z-score, replicate C = 0.15; inactive.
Silencing of AK7 resulted in: mean z-score 0.08; z-score, replicate A = -0.26; z-score, replicate B = 0.46; z-score, replicate C = 0.04; inactive.
After knock-down of FLG2, the record shows mean z-score -0.5; z-score, replicate A = -0.29; z-score, replicate B = -0.58; z-score, replicate C = -0.61; inactive.
With knock-down of TDRKH, the record shows mean z-score -1.52; z-score, replicate A = -1.39; z-score, replicate B = -1.61; z-score, replicate C = -1.56; inactive.
Against DLX3, the entry reads mean z-score -0.6; z-score, replicate A = -0.67; z-score, replicate B = -0.56; z-score, replicate C = -0.56; inactive.
C8orf34 showed mean z-score 0.09; z-score, replicate A = -0.06; z-score, replicate B = 0.26; z-score, replicate C = 0.07; inactive.
YPLR6490 (retired record) gave mean z-score -0.56; z-score, replicate A = -0.85; z-score, replicate B = -0.22; z-score, replicate C = -0.6; inactive.
NUP155 gave mean z-score 1.27; z-score, replicate A = 0.92; z-score, replicate B = 1.41; z-score, replicate C = 1.47; inactive.
RPS18 showed mean z-score -2.01; z-score, replicate A = -2.11; z-score, replicate B = -2.06; z-score, replicate C = -1.85; inactive.
For LINC02687, the values are mean z-score 1.29; z-score, replicate A = 1.58; z-score, replicate B = 1.24; z-score, replicate C = 1.04; inactive.
Depletion of DBNL came out at: mean z-score 0.58; z-score, replicate A = 0.86; z-score, replicate B = 0.4; z-score, replicate C = 0.47; inactive.
Depletion of ARHGEF2 came out at: mean z-score -0.13; z-score, replicate A = -0.1; z-score, replicate B = -0.28; z-score, replicate C = -0.01; inactive.
AKNAD1 gave mean z-score 1.94; z-score, replicate A = 1.31; z-score, replicate B = 2.15; z-score, replicate C = 2.37; inactive.
SMCO1 showed mean z-score -1.58; z-score, replicate A = -1.22; z-score, replicate B = -1.96; z-score, replicate C = -1.55; inactive.
Depletion of FAM50A gave: mean z-score 1.34; z-score, replicate A = 1.17; z-score, replicate B = 1.16; z-score, replicate C = 1.68; inactive.
For RRM2 #1, the values are mean z-score 4.5; z-score, replicate A = 4.89; z-score, replicate B = 4.54; z-score, replicate C = 4.08; active.
RRM2 #2 showed mean z-score 0.03; z-score, replicate A = -0.3; z-score, replicate B = -0.03; z-score, replicate C = 0.42; inactive.
After knock-down of HTR3C the results were mean z-score 0.25; z-score, replicate A = 0.36; z-score, replicate B = -0.04; z-score, replicate C = 0.44; inactive.
For SCRT1 #1 the deposit lists mean z-score 0.46; z-score, replicate A = 0.76; z-score, replicate B = 0.47; z-score, replicate C = 0.14; inactive.
Depletion of SCRT1 #2 came out at: mean z-score 2.52; z-score, replicate A = 2.7; z-score, replicate B = 2.7; z-score, replicate C = 2.16; active.
Depletion of NBEAL1 #1 gave: mean z-score 1.31; z-score, replicate A = 1.6; z-score, replicate B = 1.36; z-score, replicate C = 0.96; inactive.
Against NBEAL1 #2, the values are mean z-score 0.31; z-score, replicate A = 0.54; z-score, replicate B = 0.25; z-score, replicate C = 0.14; inactive.
GLYATL2 gave mean z-score -1.54; z-score, replicate A = -1.76; z-score, replicate B = -1.62; z-score, replicate C = -1.25; inactive.
Knock-down of LSG1 gave: mean z-score -0.36; z-score, replicate A = -0.34; z-score, replicate B = -0.73; z-score, replicate C = -0.03; inactive.
For LOC399707 (retired record) the deposit lists mean z-score -1.05; z-score, replicate A = -1.06; z-score, replicate B = -1.16; z-score, replicate C = -0.93; inactive.
